Measured values taken from paper PMC5364394.

Protein sequences, listed by entry. Tags and fused reporters are not part of them. Residues count along the entry.
UniProt Q07955, 1-197, stated change not applied: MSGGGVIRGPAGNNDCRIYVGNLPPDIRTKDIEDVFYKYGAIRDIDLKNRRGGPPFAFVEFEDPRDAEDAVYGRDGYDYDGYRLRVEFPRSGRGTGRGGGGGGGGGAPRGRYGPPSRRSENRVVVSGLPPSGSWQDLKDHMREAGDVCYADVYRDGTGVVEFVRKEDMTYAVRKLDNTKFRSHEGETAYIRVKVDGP
UniProt Q07955, whole entry: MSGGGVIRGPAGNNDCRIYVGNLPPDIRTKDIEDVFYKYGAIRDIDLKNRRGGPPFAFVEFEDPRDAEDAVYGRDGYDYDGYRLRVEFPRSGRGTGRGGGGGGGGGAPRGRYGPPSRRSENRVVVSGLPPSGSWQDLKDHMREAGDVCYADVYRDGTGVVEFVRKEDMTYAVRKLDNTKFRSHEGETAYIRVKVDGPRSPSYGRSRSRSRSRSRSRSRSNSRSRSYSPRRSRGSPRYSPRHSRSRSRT

Key:
[1] = target: FLAG-SF2/ASF delta-RS (human) (UniProt Q07955); assay: EMSA; details: protein in a lysate after overexpression, protein details: FLAG, label: IRDye-800
[2] = target: FLAG-SF2/ASF full length (nuclear extract) (human) (UniProt Q07955); assay: competition with a labelled probe; details: protein in a lysate after overexpression; protein details: FLAG

Row | Sequence | binding result [1] | further results
1 | CUUCUCUUCCAGGA [NS-acceptor site (AS)] |  | binding result ([1]; strong binding): binds
2 | GACAUACUAAUGAGGAUGUC [QH15-NS-529-548] | binds | 
3 | GACAUACUAUUGAGGAUGUC [Aichi68-NS-529-548] | binds | 
4 | GACAUACUGACAAGGAUGUC [H7N9-NS-529-548 cold competitor (WT)] |  | binding result [2]: binds
5 | GACAUACUGAUGAGGAUGUC [WSN-NS-529-548] | binds | 
6 | GACAUACUGCUGAGGAUGUC [PR8-NS-529-548] | binds | 
7 | GACAUACUGGUGAGGAUGUC [1194-NS-529-548] | binds | 
8 | GACAUACUUAUGAGGAUGUC [CA04-NS-529-548] | binds | 

Construct, isoform or probe ends are uncertain for at least one entry. At least one result comes from cells or an extract, where the contact may be indirect. For some assays here: At least one verdict rests on a figure or table, not on a statement of the authors.
